Anti-infective test results gathered from many reports (values: NIAID ChemDB through PubChem).

All rows: target-level tests; agent: HIV-1; protein: Reverse transcriptase; measure: inhibition

Inhibition is in % at the dose shown (toxicity tests: loss of growth or viability). Rows are shuffled and stem from different studies. Blank or dashed fields: not listed here.

structure,strain or isolate,changes,read by,tested at,result
CCOc1cc(C)c(Cl)c2c1C(=O)C=CC2=O,,,RT activity,50 µg/mL,60%
CN=C1CN=C(c2ccc[nH]2)c2cc(Cl)ccc2N1,,,ELISA,250 µM,84%
O=C(/C=C/c1ccc(O)c(O)c1)O[C@@H]1C[C@](OC(=O)/C=C/c2ccc(O)c(O)c2)(C(=O)O)C[C@@H](O)[C@H]1O,LAI,,,5 µg/mL,13%
COc1ccc2[nH]c(=O)oc2c1,,,,8 µM,1.4%
CC(=O)c1ccc(C)cc1NC(C(N)=O)c1c(Cl)cccc1Cl,,,,0.8 µg/mL,32.9%
CC1=C(/C=C/C(C)=C/C=C/C(C)=C/C(=O)O)C(C)(C)CCC1,,,ELISA,10 µM,16%
Cc1cc(O)c2c(c1F)C(=O)C=CC2=O,,,RT activity,50 µg/mL,85%
O=c1c2cccc(O)c2oc2cccc(O)c12,,,RT activity / radiometric,200 µg/mL,21.97%
Cc1cc(O)c2c(c1)C(=O)C=CC2=O,,,RT activity,50 µg/mL,98%
COc1cc(O)cc(O)c1C(=O)c1cc(O)cc(O)c1,,,RT activity / radiometric,200 µg/mL,-17.92%
CCc1c(Sc2ccccn2)n(COCc2ccccc2)c(=O)[nH]c1=O,,RT-K103N,,50 µM,50%
O=C(/C=C/c1ccc(O)c(O)c1)O[C@@H]1CC(O)(C(=O)O)C[C@@H](OC(=O)/C=C/c2ccc(O)c(O)c2)C1O,LAI,,,50 µg/mL,45%
O=C1CCSC(c2c(Cl)cccc2Cl)N1Cc1ccco1,,,ELISA,10 µg/mL,54.9%
COc1c(O)cc(O)c2c(=O)c3cc(O)ccc3oc12,,,RT activity / radiometric,200 µg/mL,93.05%
COC(=O)C(N)CC(=O)COC(=O)[C@H]1O[C@H](O[C@H]2CC[C@]3(C)[C@H]4C(=O)C=C5[C@@H]6C[C@@](C)(C(=O)O)CC[C@]6(C)CC[C@@]5(C)[C@]4(C)CC[C@H]3C2(C)C)[C@H](O[C@@H]2O[C@H](C(=O)O)[C@@H](O)[C@H](O)[C@H]2O)[C@@H](O)[C@@H]1O.S,,,,500 µg/mL,62.91%
CC/C=C\C/C=C\C/C=C\CCCCCCCC(=O)OC[C@H](CO[C@@H]1O[C@H](CO)[C@H](O)[C@H](O)[C@H]1O)OC(=O)CCCCCCCCCCCCCCC,,,nucleotide incorporation / radiometric,10 µM,65%
C[C@@H]1[C@H](O)[C@@H](C)/C=C/C=C/C=C/C=C/C=C/C=C/C=C/[C@H](O[C@@H]2O[C@H](C)[C@@H](O)[C@H](N)[C@@H]2O)CC2O[C@](O)(CC(O)C(O)CCC(O)CC(O)CC(O)CC(=O)O[C@H]1C)CC(O)C2C(=O)O.O=S(=O)(O)O,,,RT activity,40 µg/mL,30%
COc1ccc2[nH]cc(CCN)c2c1,,,,800 µM,15.6%
C1CCNCCNCCCNCCNC1,,,,0.35 µM,64%
CCN1c2ncccc2C=Cc2cccnc21,,RT-L100I,nucleotide incorporation,1 µM,80%
COc1cc(/C=C/C(=O)CC(=O)/C=C/c2ccc(O)c(OC)c2)ccc1O,,,ELISA,100 µM,29%
O=C1CCSC(c2c(F)cccc2F)N1Cc1ccco1,,,ELISA,10 µg/mL,51.6%
O=c1c2cc(O)ccc2oc2cccc(O)c12,,,RT activity / radiometric,200 µg/mL,32.42%
COc1cc(C)c(Cl)c2c1C(=O)C=CC2=O,,,RT activity,25 µg/mL,50%
Cc1cccc(N2C(=O)CSC2c2ccc(N(C)C)cc2)n1,,,ELISA,10 µg/mL,34.12%
Cc1cc(O)c2c(c1)C(=O)C=C(c1c(C)cc(O)c3c1C(=O)C=CC3=O)C2=O,,,RT activity,100 µg/mL,0%
COc1cc(OC)c2c(=O)c3c(O)c4c(c(OC)c3oc2c1O)OC(C)(C)C=C4,,,RT activity / radiometric,200 µg/mL,19.41%
O=C1CSC(c2c(F)cccc2Cl)N1c1cccc(C(F)(F)F)c1,,,ELISA,10 µg/mL,0%
Cc1ccc2c(c1O)C(=O)C=CC2=O,,,RT activity,25 µg/mL,56%

A second listing of 3 rows from above:

COc1ccc2[nH]cc(CCN)c2c1 ; tested at: 800 µM ; result: 15.6%
CC/C=C\C/C=C\C/C=C\CCCCCCCC(=O)OC[C@H](CO[C@@H]1O[C@H](CO)[C@H](O)[C@H](O)[C@H]1O)OC(=O)CCCCCCCCCCCCCCC ; read by: nucleotide incorporation / radiometric ; tested at: 10 µM ; result: 65%
O=c1c2cc(O)ccc2oc2cccc(O)c12 ; read by: RT activity / radiometric ; tested at: 200 µg/mL ; result: 32.42%